Anti-infective test results gathered from many reports (values: NIAID ChemDB through PubChem).

Common to all: target-level tests; species: HIV-1; target: Reverse transcriptase

Blank or dashed fields: not listed here. Conditions beyond the fields shown may differ between rows. ICn is the concentration giving n% inhibition.

smiles | strain or isolate | read-out | method | changes | value
O=C1OC2[C@@H](CO)O[C@@H](OC(=O)c3cc(O)c(O)c(O)c3)[C@H](OC(=O)c3cc(O)c(O)c4c3[C@@H]3C1=CC(=O)C(O)(O)C3(O)O4)[C@H]2O | - | IC50 | nucleotide incorporation | - | >20 µg/mL
Cc1cn([C@H]2C=C[C@@H](COP(=O)(O)OP(=O)(O)OP(=O)(O)O)O2)c(=O)[nH]c1=O | - | IC50 | nucleotide incorporation / radiometric | RT-E138A | 0.16 µM
O=C(OC1[C@H](O)CC(OC(=O)c2cc(O)c(O)c(O)c2)(C(=O)O)C[C@H]1O)c1cc(O)c(O)c(O)c1 | - | IC50 | nucleotide incorporation | - | >20 µg/mL
Nc1ncnc2c1ncn2[C@H]1CC[C@@H](COP(=O)(O)OP(=O)(O)OP(=O)(O)O)O1 | - | Ki | nucleotide incorporation / radiometric | RT-T215Y | 0.52 µM
O=C1OCC2OC(=O)c3cc(O)c(O)c(O)c3-c3c(O)c(O)c(O)c4c3C(=O)OC(C2OC(=O)c2cc(O)c(O)c(O)c2-c2c1cc(O)c(O)c2O)C1OC(=O)c2c-4c(O)c(O)c(O)c2[C@@H]1O | - | IC50 | nucleotide incorporation | - | >20 µg/mL
Cc1c(Cc2c(F)cccc2F)nc(SC2CCCC2)[nH]c1=O | - | IC50 | - | - | 300 µM
C=C(C)OC(=O)N1c2cc(Cl)ccc2NC(=S)C1(C)C | IIIB | IC50 | RT activity | - | 0.076 µM
Nc1ccn([C@H]2CC[C@@H](COP(=O)(O)OP(=O)(O)OP(=O)(O)O)O2)c(=O)n1 | HXB2 | Ki | nucleotide incorporation | - | 5.1 µM
C/C=C\C=C\C/C=C\CCCCCCCc1cccc(O)c1O | - | IC50 | nucleotide incorporation / radiometric | - | 56.84 µM
Nc1c(S(=O)(=O)O)cc2c3c(cc(S(=O)(=O)O)cc13)C(=O)N(NC(=O)N/N=C\c1ccc(-c3ccc(C=O)cc3)cc1)C2=O | - | IC50 | nucleotide incorporation / radiometric | - | 1.43 µM
Nc1nc(=O)n([C@@H]2CC[C@H](COP(=O)(O)OP(=O)(O)OP(=O)(O)O)O2)cc1F | - | Ki | nucleotide incorporation / radiometric | RT-A62V V75I F77L F116Y Q151M | 4.6 µM
c1ccc(C2SCc3nc4ccccc4n32)cc1 | - | IC50 | - | RT-K103N | >50 µM
Nc1ccn([C@H]2CC[C@@H](COP(=O)(O)OP(=O)(O)OP(=O)(O)O)O2)c(=O)n1 | HXB2 | IC50 | - | - | 5.6 µM
CC(=O)c1ccc(C)cc1NC(C(N)=O)c1c(Cl)cccc1Cl | IIIB | IC50 | RT activity | - | 1 µM
CCc1cc(CCc2nc3c(Cl)ccc(Cl)c3o2)c(=S)[nH]c1C | - | IC50 | nucleotide incorporation | RT-K103N | 0.14 µM
O=C(O[C@@H]1OC2CC(=O)c3cc(O)c(O)c(O)c3-c3c(cc(O)c(O)c3O)C(=O)OC2C2OC(=O)c3cc(O)c(O)c(O)c3-c3c(cc(O)c(O)c3O)C(=O)OC21)c1cc(O)c(O)c(O)c1 | - | IC50 | nucleotide incorporation | - | >20 µg/mL
Nc1c(S(=O)(=O)[O-])cc2c3c(cc(S(=O)(=O)[O-])cc13)C(=O)N(NC(=O)N/N=C\c1cccc(C=O)c1)C2=O.[Na+].[Na+] | - | IC50 | nucleotide incorporation / radiometric | - | 2.2 µM
CC1(C)CC[C@]2(C(=O)O)CC[C@]3(C)C(=CC[C@@H]4[C@@]5(C)C[C@@H](O)[C@@H]6OC(=O)c7cc(O)c(O)c(O)c7-c7c(cc(O)c(O)c7O)C(=O)OC[C@@]6(CO)[C@@H]5CC[C@]43C)[C@@H]2C1 | - | IC50 | nucleotide incorporation | - | >20 µg/mL
Cc1cn([C@H]2C[C@H](N=[N+]=[N-])[C@@H](COP(=O)(O)OP(=O)(O)C(F)(F)P(=O)(O)O)O2)c(=O)[nH]c1=O | - | Ki | RT activity | - | 2.23 µM
O=C(O[C@@H]1O[C@@H]2COC(=O)c3cc(O)c(O)c(O)c3-c3c(cc(O)c(O)c3O)C(=O)O[C@H]([C@H]1O)[C@@H]2O)c1cc(O)c(O)c(O)c1 | - | IC50 | nucleotide incorporation | - | <20 µg/mL
Nc1ccn([C@H]2CC[C@@H](COP(=O)(O)OP(=O)(O)OP(=O)(O)O)O2)c(=O)n1 | - | Ki | nucleotide incorporation / radiometric | RT-Q151M | 0.66 µM
Nc1ccn([C@H]2O[C@@H](COP(=O)(CP(=O)(O)O)OP(=O)(O)O)C(O)[C@H]2O)c(=O)n1 | - | IC50 | RNase H | - | 585 µM
CC1OC(O)C2OC(=O)c3cc(O)c(O)c(O)c3-c3c(cc(O)c(O)c3O)C(=O)OC2C1O | - | IC50 | nucleotide incorporation | - | >20 µg/mL
O=C(O)c1ccc(-c2cccc(/C=N/NC(=O)c3cc(O)c(O)c(O)c3)c2)cc1 | - | IC50 | - | - | 0.3 µM
Oc1cc(O)c2c(c1)O[C@H](c1ccc(O)c(O)c1)[C@H](O)C2 | - | IC50 | nucleotide incorporation | - | >20 µg/mL
Cc1cn([C@@H]2O[C@H](CO[Si](C)(C)C(C)(C)C)C3(OS(=O)(=O)C=C3N)[C@H]2O[Si](C)(C)C(C)(C)C)c(=O)n(C)c1=O | IIIB | IC50 | RT activity | - | 3 µM
CCc1cc(CCc2nc3ccccc3o2)c(=O)[nH]c1C | - | IC50 | nucleotide incorporation | RT-K103N Y181C | 118 µM
C=CC/C=C\C/C=C\CCCCCCCc1cccc(O)c1O | - | IC50 | nucleotide incorporation / radiometric | - | 55.36 µM
COc1ccc2c(c1)N(C(=O)OC(C)C)[C@@H](CSC)C(=S)N2 | IIIB | Ki | RT activity | - | 0.01 µM

Repeating the final 3 entries:

smiles,strain or isolate,read-out,method,changes,value
CCc1cc(CCc2nc3ccccc3o2)c(=O)[nH]c1C,-,IC50,nucleotide incorporation,RT-K103N Y181C,118 µM
C=CC/C=C\C/C=C\CCCCCCCc1cccc(O)c1O,-,IC50,nucleotide incorporation / radiometric,-,55.36 µM
COc1ccc2c(c1)N(C(=O)OC(C)C)[C@@H](CSC)C(=S)N2,IIIB,Ki,RT activity,-,0.01 µM